Results of unrelated studies side by side (data: NIAID ChemDB).

All rows: growth or infection tests; species: HIV-1; method: cytopathic effect / MTT; endpoint: fold resistance

Neighbouring rows are from separate reports. Fold resistance has wild type as its base. An empty or dashed field is not shown.

| structure | changes | strain or isolate | cells | result |
|---|---|---|---|---|
| CCc1c(C)[nH]c(=O)c(N(C)C)c1C(=O)c1cccc(/C=C/c2cccnc2)c1 | RT-Y181C | - | MT-4 | 21 |
| O=c1[nH]cnc2c1ncn2[C@H]1CC[C@@H](CO)O1 | RT-K103R V179D P225H | EFV-resistant (RT K103R V179D P225H) | MT-4 | 0.12 |
| COc1c(O)c(I)c2c(c1OC)-c1c(c(I)c(O)c(OC)c1OC)C[C@H](C)[C@H](C)C2 | RT-Y188L | 1506-RS (RT-Y188L) | MT-4 | >76.9 |
| CCn1c(=O)c(C)cn([C@@H]2O[C@H](CO[Si](C)(C)C(C)(C)C)C3(OS(=O)(=O)C=C3N)[C@H]2O[Si](C)(C)C(C)(C)C)c1=O | RT-E138A S162C E169D T200A L214F | HXB2 (RT E138A S162C E169D T200A L214F) Clinical isolate | MT-4 | 90 |
| Cc1cn([C@H]2C[C@H](N=[N+]=[N-])[C@@H](CO)O2)c(=O)[nH]c1=O | RT-Q151M V75I | - | MT-2 | >20 |
| CCc1c(C)[nH]c(=O)c(N(C)C)c1C(=O)c1cc(Cl)cc(Cl)c1 | RT-K101E | - | MT-4 | 6 |
| Nc1nc2c(ncn2[C@H]2CO[C@@H](CO)O2)c(=O)[nH]1 | RT-Q151M A62V | - | MT-2 | >23 |
| CC(=O)Oc1ccc(/C=C/C(=O)O[C@@H](C(=O)O)[C@@H](OC(=O)/C=C/c2ccc(OC(C)=O)c(OC(C)=O)c2)C(=O)O)cc1OC(C)=O | AMD2763-resistant | NL4-3 | MT-4 | >9 |
| c1ccc(C2OCc3nc4ccccc4n32)cc1 | RT-L100I | TIBO R82150-resistant (RT L100I) | CEM | 1.3 |
| Cc1cn([C@H]2C=C[C@@H](COC(=O)NCCSC(=O)OC[C@@H]3C=C[C@H](n4cc(C)c(=O)[nH]c4=O)O3)O2)c(=O)[nH]c1=O | RT-K103R V179D P225H | EFV-resistant (RT K103R V179D P225H) | MT-4 | 0.3 |
| Fc1cccc(F)c1C1SCc2nc3ccccc3n21 | RT-L100I | TIBO R82150-resistant (RT L100I) | CEM | 2.24 |
| CCc1c(C)[nH]c(=O)c(N(C)C)c1C(=O)c1cccc(/C=C/C#N)c1 | RT-E138K | - | MT-4 | 5 |
| Cc1cn([C@H]2C[C@H](N=[N+]=[N-])[C@@H](COC(=O)NCCSC(=O)OC[C@@H]3CC[C@H](n4cnc5c(=O)[nH]cnc54)O3)O2)c(=O)[nH]c1=O | RT-K103R V179D P225H | EFV-resistant (RT K103R V179D P225H) | MT-4 | 0.2 |
| Nc1ccn([C@H]2CC[C@@H](CO)O2)c(=O)n1 | RT-A98S E138A | Recombinant mutant | MT-4 | 0.6 |
| CCc1c(C)[nH]c(=O)c(N(C)C)c1Cc1cccc(/C=C/C#N)c1 | RT-Y181C | - | MT-4 | 40 |
| CC(=O)c1ccc(C)cc1NC(C(N)=O)c1c(Cl)cccc1Cl | RT-A98S | Recombinant mutant | MT-4 | 0.6 |
| CCOCn1c(Cc2ccccc2)c(C(C)C)c(=O)[nH]c1=O | RT-E138K | - | MT-4 | 9.87 |
| CC(C)=CCN1Cc2cc(Cl)cc3[nH]c(=S)n(c23)C[C@@H]1C | RT-E138A | Recombinant mutant | MT-4 | 2.3 |
| CC(C)=CCN1Cc2cccc3[nH]c(=S)n(c23)C[C@@H]1C | RT-Y181C | N119 nevirapine-resistant (RT Y181C) | MT-2 | 385 |
| O=c1[nH]cnc2c1ncn2[C@H]1CC[C@@H](CO)O1 | RT-A98S E138A | Recombinant mutant | MT-4 | 0.9 |
| COc1c(O)c(Cl)c2c(c1OC)-c1c(c(Cl)c(O)c(OC)c1OC)C[C@H](C)[C@H](C)C2 | RT-K103N Y181C | A17 | MT-4 | 14.1 |

Repeating the first 2 entries:

CCc1c(C)[nH]c(=O)c(N(C)C)c1C(=O)c1cccc(/C=C/c2cccnc2)c1 ; changes: RT-Y181C ; cells: MT-4 ; result: 21
O=c1[nH]cnc2c1ncn2[C@H]1CC[C@@H](CO)O1 ; changes: RT-K103R V179D P225H ; strain or isolate: EFV-resistant (RT K103R V179D P225H) ; cells: MT-4 ; result: 0.12